Measured values from several laboratories, pooled; numbers as filed in NIAID ChemDB.

Common to all: whole-cell or culture tests; organism: HIV-1; read by: syncytia; measure: EC50

Blank or dashed fields: not listed here. ECn is the concentration giving n% inhibition of infection, replication or growth. Neighbouring rows are from separate reports.

compound | cell line | strain | mutations | result
CC1=C(C(=O)Nc2ccc(Cl)c(C(=O)OC(C)C)c2)SCCO1 | CEM | IIIB | - | 0.015 µg/mL
CC(C)c1c(Sc2ccccc2)n(COCCO)c(=S)[nH]c1=O | CEM | IIIB TIBO R82913-resistant (RT K103N) | RT-K103N | >10 µM
CC[C@@H](C)OC(=S)Nc1ccc(Cl)c(C(=O)OC(C)C)c1 | CEM | - | RT-E138K | 0.273 µM
Cc1ccc(C)c(CSc2c(Cl)ccc[n+]2[O-])c1 | CEM | IIIB | RT-E103K | 1.2 µg/mL
C/C=C\COc1cc(NC(=S)OC(C)C)ccc1Cl | CEM | - | RT-L100I | 1.668 µM
O=S(=O)(Cc1ccccc1I)c1cccc[n+]1[O-] | CEM | MN | - | 9.4 µg/mL
CCCCCOC(=O)c1cc(NC(=O)C2=C(C)OCCS2)ccc1Cl | CEM | PYR-resistant (RT Y181C) | RT-Y181C | 0.6 µg/mL
COc1ccc(C)cc1CS(=O)(=O)c1cccc[n+]1[O-] | MT-2 | IIIB | - | 12 µg/mL
COc1ccc(NC(=S)OC(C)C)cc1CC(=O)OC(C)C | CEM | - | RT-Y181C | 1.69 µM
Cc1occc1C(=S)Nc1ccc(Cl)c(OCC=C(Cl)Cl)c1 | CEM | IIIB | - | 0.0085 µg/mL
CCOCn1c(Sc2cc(C)cc(C)c2)c(CC)c(=O)[nH]c1=S | CEM | IIIB | RT-Y181I | 0.57 µM
Cc1ccc(C)c(CS(=O)c2ccc(Cl)c[n+]2[O-])c1 | CEM | IIIB | RT-E138K | 9.5 µg/mL
CC(C)c1c(Sc2ccccc2)n(COCCO)c(=O)[nH]c1=O | CEM | IIIB | - | 0.028 µM
Cc1ccc(C)c(C(Cl)S(=O)(=O)c2cc(C)cc[n+]2[O-])c1 | CEM | IIIB | RT-K103N | >4 µg/mL
C=C(Cl)COc1cc(NC(=S)c2ccoc2C)ccc1C | CEM | HEPT-resistant (RT Y188H) | RT-Y188H | 2 µg/mL
CC1=C(C(=O)Nc2cc(C(=O)OC(C)C)c(Cl)cc2F)SCCO1 | CEM | TSAO-resistant (RT E138K) | RT-E138K | >10 µg/mL
CCOCn1c(Sc2ccccc2)c(C(C)C)c(=O)[nH]c1=O | CEM | IIIB | RT-Y181C | 1.3 µM
COC(=O)c1cc(NC(=S)OC(C)C)ccc1Cl | CEM | - | RT-E138K | 26.06 µM
CC1=C(C(=O)Nc2ccc(Cl)c(OCC=C(Cl)Cl)c2)SCCO1 | CEM | TIBO R82913-resistant (RT K103N) | RT-K103N | 2 µg/mL
CC(C)OC(=S)Nc1ccc(Cl)c(C(=O)OCc2ccccc2)c1 | CEM | IIIB | - | 0.962 µM
CC(C)=CCOc1cc(NC(=S)c2ccoc2C)ccc1Cl | CEM | IIIB | RT-Y181C | 0.033 µM
CCc1c(Sc2cc(C)cc(C)c2)n(COCCO)c(=O)[nH]c1=O | CEM | IIIB (TIBO 82150) (RT-L100I) | RT-L100I | 0.02 µM
C=CCOc1cc(NC(=S)OC(C)C)ccc1Cl | CEM | - | RT-Y181C | 10.5 µM
CCCCCCCCCC[N+](C)(C)CCCNCc1c(O)cc2c(c1O)-c1cc(ccc1O)[C@H]1NC(=O)[C@@H]3NC(=O)C4NC(=O)[C@@H](Cc5ccc(c(Cl)c5)Oc5cc3cc(c5O)Oc3ccc(cc3Cl)[C@@H](O)[C@H](NC1=O)C(=O)N[C@@H]2C(=O)O)NC(=O)[C@H](N)c1ccc(O)c(c1)Oc1cc(O)cc4c1 | CEM | - | RT-Y181C | 8.5 µM
COc1ccc(NC(=O)c2ccoc2C)cc1OCC=C(Cl)Cl | CEM | Pyridone-resistant (RT Y181C) | RT-Y181C | 8 µg/mL
CCC1=C(C(=O)Nc2ccc(Cl)c(C(=O)OCC(C)C)c2)SCCO1 | CEM | IIIB | - | 0.05 µg/mL
CCc1c(Sc2ccccc2)n(COCc2ccccc2)c(=S)[nH]c1=O | CEM | IIIB | RT-Y188H | ≥25 µM
O=[N+]([O-])c1ccc[n+]([O-])c1SCc1ccccc1 | CEM | IIIB | RT-K103N | 9.6 µg/mL
CC(C)c1c(Sc2ccccc2)n(COCc2ccccc2)c(=O)[nH]c1=O | CEM | IIIB | RT-Y188H | ≥10 µM
CO/N=C(\C)COc1cc(NC(=S)OC(C)C)ccc1Cl | CEM | IIIB | - | 0.212 µM
C=C(Cl)COc1cc(NC(=S)c2ccsc2C)ccc1C#N | CEM | IIIB | - | 0.03 µg/mL
CC(C)COC(=O)c1cc(NC(=S)OC(C)C)ccc1Cl | CEM | - | RT-V106A | 2.577 µM
Cc1sccc1C(=O)Nc1ccc(Cl)c(OCC=C(Cl)Cl)c1 | CEM | TIBO R82913-resistant (RT K103N) | RT-K103N | 2 µg/mL
Cc1ccc(C)c(CS(=O)(=O)c2cccc[n+]2[O-])c1 | CEM | HE | - | 11 µg/mL
Cc1occc1C(=S)Nc1ccc(Cl)c(/C=N/OC(C)(C)C)c1 | CEM | IIIB | RT-L100I | 0.242 µM
CC(C)OC(=S)Nc1ccc(Cl)c(COC(C)(C)C)c1 | CEM | - | RT-Y181C | >31.66 µM
CC(C)=CCOc1cc(NC(=S)c2ccoc2C)ccc1Cl | CEM | IIIB | RT-V106A | 0.015 µM
CSC(=Nc1ccc(Cl)c(C(=O)OC(C)C)c1)OC(C)C | CEM | - | RT-V106A | >30.13 µM
CC1=C(C(=O)Nc2ccc(F)c(C(=O)OC(C)C)c2)SCCO1 | CEM | Nevirapine-resistant (RT V106A) | RT-V106A | >10 µg/mL
Cc1ccccc1OC(=O)c1cc(NC(=S)OC(C)C)ccc1Cl | CEM | IIIB | - | 1.099 µM
COc1ccc(NC(=S)C2=C(C)OCCS2)cc1OCC=C(Cl)Cl | CEM | HEPT-resistant (RT Y188H) | RT-Y188H | 2 µg/mL
CCCC1=C(C(=O)Nc2ccc(Cl)c(C(=O)OC)c2)SCCO1 | CEM | Nevirapine-resistant (RT V106A) | RT-V106A | >10 µg/mL
CO/N=C/c1cc(NC(=S)OC(C)C)ccc1Cl | CEM | - | RT-V106A | 20.92 µM
CC(C)=CCOc1cc(NC(=S)c2ccoc2C)ccc1Cl | CEM | IIIB | RT-V179D | 0.003 µg/mL
CCOCn1c(Sc2ccccc2)c(CC)c(=O)[nH]c1=S | CEM | IIIB | Nevirapine resistant (RT Y181C) | 0.31 µM
C=CCOC(=O)c1cc(NC(=S)OC(C)C)ccc1Cl | CEM | IIIB | - | 0.127 µM
CCOCn1c(Sc2ccccc2)c(CC)c(=O)[nH]c1=O | CEM | IIIB | Nevirapine resistant (RT Y181C) | 0.65 µM
CC1=C(C(=O)Nc2cc(Cl)cc(C(=O)OC(C)C)c2)SCCO1 | CEM | TIBO-resistant (RT L100I) | RT-L100I | 5 µg/mL
CC(C)OC(=S)Nc1ccc(Cl)c(C(=O)OC(C(C)C)C(C)C)c1 | CEM | - | RT-V106A | ≥2.689 µM
Cc1sccc1C(=S)Nc1ccc(Cl)c(OCC=C(Cl)Cl)c1 | CEM | IIIB | - | 0.007 µg/mL
CC(C)OC(=S)Nc1ccc(Cl)c(C(=O)OC2CCCC2)c1 | CEM | - | RT-L100I | 2.194 µM
Cc1ccc(C)c(C(C)S(=O)(=O)c2c(C)ccc[n+]2[O-])c1 | CEM | IIIB | RT-E103K | 4 µg/mL
CCCCOC(=O)c1cc(NC(=O)C2=C(C)OCCS2)ccc1Cl | CEM | IIIB | - | 0.04 µg/mL
C#CCOc1cc(NC(=S)OC(C)C)ccc1Cl | CEM | - | RT-V106A | 1.762 µM
CC1=C(C(=O)Nc2cc(C(=O)OC(C)C)c(F)cc2F)SCCO1 | CEM | Nevirapine-resistant (RT V106A) | RT-V106A | >10 µg/mL
CSCCOC(=S)Nc1ccc(Cl)c(C(=O)OC(C)C)c1 | CEM | - | RT-E138K | 14.37 µM
COc1ccc(NC(=S)c2ccsc2C)cc1OCC=C(Cl)Cl | CEM | HEPT-resistant (RT Y188H) | RT-Y188H | 2 µg/mL
CC(C)OC(=S)Nc1ccc(Cl)c(C(=O)SC(C)C)c1 | CEM | - | RT-V106A | 5.725 µM
Cc1occc1C(=S)Nc1ccc(Cl)c(/C=N/OC(C)(C)C)c1 | CEM | IIIB | RT-L100I | 0.242 µM

The last 3 rows once more:

compound | cell line | strain | mutations | result
COc1ccc(NC(=S)c2ccsc2C)cc1OCC=C(Cl)Cl | CEM | HEPT-resistant (RT Y188H) | RT-Y188H | 2 µg/mL
CC(C)OC(=S)Nc1ccc(Cl)c(C(=O)SC(C)C)c1 | CEM | - | RT-V106A | 5.725 µM
Cc1occc1C(=S)Nc1ccc(Cl)c(/C=N/OC(C)(C)C)c1 | CEM | IIIB | RT-L100I | 0.242 µM